Measurements reported in PubChem BioAssay AID1259414 (Drosophila RNAi Screening Center, 2018)

Purpose: 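Genome-wide screen for host control of endosymbiont load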 (primary screen)
Cell system: Drosophila JW18 cells infected with Wolbachia
Knock-down reagent: long dsRNA against Drosophila genes, 0.25 µg dsRNA per well of a 384-well plate
Timing: 5 days
Conditions: cells persistently infected with Wolbachia before knock-down; no added drug
Measured: 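Imaged fluorescence in situ signal for Wolbachia 23S rRNA per DAPI-counted host cell, given as a robust z-score within each plate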
Direction: Wolbachia per cell robust z: higher = more Wolbachia per host cell than the plate typical
Call rule: 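Hit when robust z is 1.5 or more, or -1.5 or less, in at least two of three replicates; excludes dsRNAs with several or no targets, genes not expressed in JW18 and well A1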
In all, the deposit lists about 24,000 reagents; below is a random part of those with a known target gene and a result. In the full data, about 1,210 (5%) got an active call. 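Inactive calls also include excluded dsRNAs with several or no targets, genes unexpressed in JW18, and well A1, regardless of score.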 A number with no mark means an inactive call. A plus sign joins genes that one reagent is predicted to hit. Reagent sequences are not shown.

target	DRSC id	Wolbachia per cell robust z, rep 1	Wolbachia per cell robust z, rep 2	Wolbachia per cell robust z, rep 3
mRpL44	DRSC12306	-0.234	-3.06	-1.19
mRpL44	DRSC26876	0.00664	0.533	-1.64
mus302	DRSC09905	0.879	0.833	1.43
GstT3	DRSC20541	-2.05 (active)	-1.8	-3.67
sing	DRSC19530	0.411	0.569	0.723
5-HT2A	DRSC11990	0.155	0.36	-0.742
CG18213	DRSC15316	0.225	-0.379	-0.02
Rab26	DRSC11838	0.873	0.641	-1.53
Rab26	DRSC11839	-3.08	-0.0703	-0.367
Rab26	DRSC24968	-0.48	-0.695	1.33
Rab26	DRSC27712	0.0431	0.517	0.53
CG8419	DRSC03087	-1.18	-2.69	-0.649
Inx7 + cm	DRSC18753	-0.0117	-0.0025	-0.661
CkIalpha	DRSC20231	2.48 (active)	1.58	3.53
CkIalpha	DRSC22609	0.684	0.245	1.38
CkIalpha	DRSC23308	-0.693	0.225	-0.587
CkIalpha	DRSC25564	3.31 (active)	3.66	-0.0876
CSN3	DRSC11859	1.15	0.973	0.532
CSN3	DRSC25919	-0.907	2.69	0.906
dls	DRSC37821	-0.187	-0.343	-2
ova	DRSC02879	0.402	0.833	0.155
Nct	DRSC16172	0.281	-0.803	-0.288
GstE7	DRSC06677	-3.52 (active)	-1.04	-5.84
Su(dx)	DRSC00791	0.519	-0.00485	0.215
Su(dx)	DRSC26192	-0.0953	0.206	0.448
kek1	DRSC03551	0.437	0.382	0.277
kek1	DRSC40801	-0.655	-0.0297	-2.7
CG17440	DRSC18126	-0.238	-1.15	0.163
CG17440	DRSC41285	0.123	-0.673	-0.85
Stt3A	DRSC20514	0.0102	-0.533	-0.742
Stt3A	DRSC24884	0.438	0.288	-0.462
CG30022	DRSC22405	-0.126	-0.747	-2.43
armi	DRSC08193	-0.0351	0.156	0.602
Hex-t2	DRSC22517	-0.678	-2.03	-1.41
Hex-t2	DRSC28247	0.0452	1.16	0.715
LpR1	DRSC15665	0.181	0.781	0.915
LpR1	DRSC15669	0.943	0.0142	0.359
LpR1	DRSC15670	0.16	-1.73	-0.308
LpR1	DRSC27848	1.03	-0.941	-1.63
Ir93a	DRSC15212	-0.558	0.831	-1.67
Ir93a	DRSC15213	-4.55	-0.898	-1.22
Ir93a	DRSC28149	-0.0566	0.754	-3.07
SiaT	DRSC04494	0.161	-0.0318	-0.232
LysRS	DRSC17824	0.237	0.751	1.01
LysRS	DRSC25618	-0.0445	-1.23	0.0756
CG10311	DRSC14228	0.207	-0.792	-3.67
Ube3a	DRSC10600	-0.502	-0.199	0.0261
vsg	DRSC10219	0.394	-0.0271	-0.494
vsg	DRSC25227	-0.352	-1.45	0.124

14 entries from above, arranged by “Wolbachia per cell robust z, rep 3”, low to high.
target	DRSC id	Wolbachia per cell robust z, rep 1	Wolbachia per cell robust z, rep 2	Wolbachia per cell robust z, rep 3
GstE7	DRSC06677	-3.52 (active)	-1.04	-5.84
kek1	DRSC40801	-0.655	-0.0297	-2.7
CG30022	DRSC22405	-0.126	-0.747	-2.43
dls	DRSC37821	-0.187	-0.343	-2
CG17440	DRSC41285	0.123	-0.673	-0.85
Stt3A	DRSC20514	0.0102	-0.533	-0.742
Stt3A	DRSC24884	0.438	0.288	-0.462
Nct	DRSC16172	0.281	-0.803	-0.288
ova	DRSC02879	0.402	0.833	0.155
CG17440	DRSC18126	-0.238	-1.15	0.163
Su(dx)	DRSC00791	0.519	-0.00485	0.215
kek1	DRSC03551	0.437	0.382	0.277
Su(dx)	DRSC26192	-0.0953	0.206	0.448
armi	DRSC08193	-0.0351	0.156	0.602

The listing continues:
target	DRSC id	Wolbachia per cell robust z, rep 1	Wolbachia per cell robust z, rep 2	Wolbachia per cell robust z, rep 3
CG10031	DRSC00286	-0.0188	-5.11	-0.514
CG10749	DRSC09798	1.02	-0.788	0.115
CG10749	DRSC27656	-0.362	-3.59	-1.17
key	DRSC04285	-0.176 (active)	-1.78	-5.03
CG13510	DRSC04152	0.257	0.428	0.224
Pih1D1	DRSC02897	-3.41 (active)	-0.125	-4.53
Pih1D1	DRSC28212	0.592	1.42	0.998
dimm	DRSC03100	0.00812	1.04	0.00155
aos	DRSC11323	-0.699	-1.21	-0.978
aos	DRSC40841	1.16	0.241	0.31
Rbf2	DRSC16816	-0.75	1.44	-0.194
Or33a	DRSC03386	-0.365	0.747	0.00552
REPTOR-BP	DRSC02683	1.63	0.0388	0.853
sfl	DRSC08828	1.73	0.609	0.566
sfl	DRSC08830	0.656	1.14	-0.97
sfl	DRSC25916	0.782	0.00449	-0.123
m-cup	DRSC14430	0.99	0.465	1.06
Arc42	DRSC14340	0.253	1.46	-0.672
Arc42	DRSC15627	-3.96	0.955	-0.602
CG10444	DRSC05990	2.15	0.239	0.983
CG31441	DRSC15723	1.03	0.0697	-0.0583
CG31441	DRSC27463	-0.241	0.247	0.257
CG17784	DRSC15268	-4.39	0.66	0.277
Sfp24Ba	DRSC40530	-1.89	-0.497	0.279
Bacc	DRSC27262	1.01	1.19	0.661
CG42827	DRSC16116	0.516	-1.77	0.489
HP4	DRSC10958	-8.64 (active)	-0.211	-2.13
CG31251	DRSC16247	-0.111	0.78	0.0205
Hasp	DRSC02022	-0.526	-0.975	0.623
CG42699	DRSC18076	0.203	1.45	0.0178
CG42699	DRSC18341	1.07	0.798	1.15
CG42699	DRSC25221	1.23	-0.11	-0.432
CG18666	DRSC02694	0.258	-0.374	-0.598
Gr63a	DRSC08438	-0.415	0.351	-0.00378
CG12106	DRSC17805	-1.53 (active)	-6.34	0.52
CG5004	DRSC19929	-0.129	0.0889	0.361
CG5004	DRSC19930	-0.647	0.616	0.892
p-cup	DRSC19513	-4.3	0.0576	0.497
